This assay has as its system Visna virus (VIV). Nature of the assay: Anti-VIV activity, % protection (Tables VI, 9). The assay is classed as cell-based. The note with it: Table VI, dose 0.3 (unit not given).

Regarding -Ketobutyryl-Pro Didemnin A, the “% Protection” value is reported as “I”.

The values above are taken from patent publication US5294603A, “Pharmaceutical compositions containing didemnins” (The Board of Trustees of The University of Illinois, priority 1992, dated 1994).
